A mixed list of measured activities; the numbers were collected in NIAID ChemDB.

Common to all: whole-cell or culture tests; organism: Varicella zoster virus; method: plaque count; measure: EC50

ECn is the concentration giving n% inhibition of infection, replication or growth. Conditions beyond the fields shown may differ between rows. Two numbers with a dash give a range or band. An empty or dashed field is not shown.

structure | cell line | strain or isolate | value
OC[C@H]1O[C@@H](c2cc(C(F)(F)F)c(F)cc2F)C[C@@H]1O | HEL | (TK+)/OKA | >200 µM
CCCc1ccc(OCCCc2cc3cn([C@H]4C[C@H](O)[C@@H](CO)O4)c(=O)nc3o2)cc1 | HEL | TK+/YS | 10.8 µM
OC[C@H]1O[C@@H](c2ccc(F)cc2F)C[C@@H]1O | HEL | (TK+)/OKA | >200 µM
CC1(C)[C@@H](CCO)C[C@H]1n1cnc2c(N)ncnc21 | HEL | TK+/YS | >20 µg/mL
OC[C@H]1O[C@H](c2cc(F)c(F)cc2F)C[C@@H]1O | HEL | (TK-)07/1 | >200 µM
NC1=NS(=O)(=O)N(Cc2ccccc2)c2nc[nH]c21 | HEL | OKA | >50 µg/mL
N#Cc1ccc(-c2cc3ccccn3c2)cc1 | MRC-5 | G-31 | 5 µM
Cc1cn([C@H]2C[C@H](O)[C@@H](CO)O2)c(=S)[nH]c1=O | MRC-5 | HOSEN (TK+) | 21.5 µM
OC[C@H]1O[C@@H](c2cc(C(O)C(I)I)c(F)cc2F)C[C@@H]1O | HEL | YS (TK+) | 85 µg/mL
O=c1nc2oc(CCCOc3ccccc3)cc2cn1[C@H]1C[C@H](O)[C@@H](CO)O1 | HEL | TK+/YS | 92 µM
Nc1nc2c(ncn2CCC(CO)CO)c(=O)[nH]1 | HEL | 13 isolates | 3.6 µM
COc1ccc2c(c1)OC1(C=C2)N(C)c2ccc(Cl)cc2C1(C)C | HEL | 07/1 (TK-) | 2.5 µM
CC1(C)[C@@H](CCO)C[C@H]1n1cnc2c(N)nc(N)nc21 | HEL | (TK-)/YS/R | >50 µg/mL
C=Cc1cn([C@@H]2O[C@H](CO)[C@@H](O)[C@@H]2O)c(=S)nc1N | MRC-5 | CAQU (TK+) | >266.3 µM
Nc1nc(=O)n([C@H]2C[C@H](O)[C@@H](CO)O2)cc1/C=C/Cl | HEL | OKA (TK+) | 0.0034 µM
CC1(C)[C@@H](CCO)C[C@H]1n1nnc2c(N)nc(N)nc21 | HEL | (TK+)/OKA | 20 µg/mL
N#Cc1ccn2cc(-c3ccccc3)cc2c1 | MRC-5 | G-31 | >40 µM
O=c1nc2oc(-c3ccccc3)cc2cn1C1CC[C@@H](CO)O1 | HEL | YS (TK+) | >200 µM
O=c1[nH]c(=O)n([C@H]2C[C@H](O)[C@@H](CO)O2)cc1I | HEF | OKA | 0.43 µg/mL
Cc1c(Br)cc(Br)c2ncc(CSCc3ccccc3Cl)n12 | HEL | OKA (TK+) | >5 µg/mL
O=C(NCc1ccc(Cl)cc1)c1c[nH]c2ccc(C#CCO)cc2c1=O | - | KLE | 0.2 µM
O=c1[nH]c(=S)n([C@@H]2O[C@H](CO)[C@@H](O)[C@@H]2O)cc1CCO | MRC-5 | CAQU (TK+) | >244.8 µM
OC[C@H]1O[C@@H](c2cc(Br)c(F)cc2F)C[C@@H]1O | HEL | (TK+)/OKA | >200 µM
Cn1cc(C(=O)NCc2ccc(Cl)cc2)c(=O)c2cc(CN3CCOCC3)ccc21 | HFF | MC varicella isolate | 0.6 µM
O=c1[nH]c(=S)n([C@@H]2O[C@H](CO)[C@@H](O)[C@@H]2O)cc1/C=C/c1ccccc1 | MRC-5 | CAQU (TK+) | 2.6 µM
Nc1ccn(C[C@@H](CO)OCP(=O)(O)O)c(=O)n1 | HEL | 07/1 (TK-) | 0.23 µM
CN1c2ccc(Cl)cc2C(C)(C)C12C=Cc1c(ccc3ccccc13)O2 | HEL | 07/1 (TK-) | >8.8 µM
O=c1[nH]c(=O)n([C@H]2C[C@H](O)[C@@H](CO)O2)cc1/C=C/I | HEF | CAQU | 0.0008 µg/mL
CCCCCc1ccc(-c2cc3cn(C4CC[C@@H](CO)O4)c(=O)nc3o2)cc1 | HEL | YS/R (TK-) | >20 µM
O=c1c2ncn(COC(CO)CO)c2nc2[nH]c(-c3ccccc3)cn12 | HEL | YS/R (TK-) | 1 µg/mL
CCc1cn([C@@H]2O[C@H](CO)[C@@H](O)[C@@H]2O)c(=S)[nH]c1=O | MRC-5 | CAQU (TK+) | >264.9 µM
COc1ccc2c(c1)OC1(C=C2)N(C)c2ccccc2C1(C)C | HEL | YS (TK+) | 9.2 µM
O=c1[nH]c(=O)n([C@@H]2O[C@H](CO)[C@@H](O)[C@@H]2O)cc1/C=C/Cl | - | Kawaguchi acyclovir-resistant mutant A7 | 0.000413 µg/mL
CC1(C)[C@@H](CCO)C[C@H]1n1nnc2c(=O)[nH]cnc21 | HEL | (TK+)/OKA | >20 µg/mL
COc1ccc(CSCc2cnc3c(Br)cc(Br)c(C)n23)cc1 | HEL | YS/R (TK-) | >20 µg/mL
CCCCc1ccc(-c2cc3cn(C4CC[C@@H](CO)O4)c(=O)nc3o2)cc1 | HEL | 07/1 (TK-) | >5 µM
NC1=NC2C(C=CN2CC(CO)CCO)C(=O)N1 | HEL | OKA (TK+) | 0.0095 µM
CCCCCCCc1ccc(-c2cc3cn(C4CC[C@@H](CO)O4)c(=O)nc3o2)cc1 | HEL | YS (TK+) | >5 µM
OC[C@H]1O[C@@H](c2cc(C(O)C(Br)Br)c(F)cc2F)C[C@@H]1O | HEL | YS (TK+) | >200 µg/mL
O=c1[nH]c(=O)n([C@H]2C[C@H](O)[C@@H](CO)O2)cc1I | HEL | YS/R | 1.9 µg/mL
c1ccn2cc(-c3cncs3)cc2c1 | MRC-5 | G-31 | 40–50 µM
CCc1cn([C@@H]2O[C@H](CO)[C@@H](O)[C@@H]2O)c(=S)nc1N | MRC-5 | CAQU (TK+) | >264.9 µM
NC1=NS(=O)(=O)N(Cc2ccccc2)c2nc(Cc3ccccc3)[nH]c21 | HEL | YS | 15 µg/mL
Nc1nc2c(ncn2COCCO)c(=O)[nH]1 | HEL | OKA (TK+) | 0.8 µM
CC(O)c1cn([C@@H]2O[C@H](CO)[C@@H](O)[C@@H]2O)c(=S)nc1N | MRC-5 | CAQU (TK+) | >205.6 µM
Cc1c(Br)cc(Br)c2ncc(CSC(C)c3cccs3)n12 | HEL | YS (TK+) | >2 µg/mL
C=Cc1cn([C@H]2C[C@H](O)[C@@H](CO)O2)c(=S)[nH]c1=O | MRC-5 | CAQU (TK+) | 72.6 µM
O=C(O)P(=O)(O)O | HEL | 13 isolates | 84.7 µM
Cc1cc([C@@H]2C[C@H](O)[C@@H](CO)O2)c(F)cc1F | HEL | (TK-)07/1 | >200 µM
Cc1c(Br)cc(Br)c2ncc(CSCc3ccc(Cl)cc3)n12 | HEL | 07/1 (TK-) | 2.8 µg/mL
O=c1nc2oc(CCCCOc3ccccc3)cc2cn1[C@H]1C[C@H](O)[C@@H](CO)O1 | HEL | (TK+)/OKA | 25 µM
Nc1nc(=O)n([C@@H]2O[C@H](CO)[C@@H](O)[C@@H]2F)cc1I | HEL | OKA (TK+) | 0.054 µM
Cc1cn([C@@H]2O[C@H](CO)[C@@H](O)[C@@H]2O)c(=O)[nH]c1=O | - | Kawaguchi acyclovir-resistant mutant A6 | 0.0104 µg/mL
O=C(O)c1cccn2cc(-c3ccccc3)cc12 | MRC-5 | G-31 | >40 µM
Nc1ncnc2c1ncn2[C@@H]1C[C@H](CO)[C@@H](O)[C@@H]1O | HEL | YS-V10 H12 | 0.9 µg/mL
Nc1nc2c(ncn2COC(CO)CO)c(=O)[nH]1 | HEL | 13 isolates | 1.45 µM
CN1c2ccc(Cl)cc2C(C)(C)C12C=Nc1c(ccc3ccccc13)O2 | HEL | 07/1 (TK-) | >8.8 µM
Cc1c(Br)cc(Br)c2ncc(CSCc3ccc(Cl)c(Cl)c3)n12 | HEL | YS/R (TK-) | 2.8 µg/mL
O=c1[nH]c(=O)n([C@H]2C[C@H](O)[C@@H](CO)O2)cc1/C=C/Br | HEF | Batson | 0.0013 µg/mL
Cc1c(Br)cc(Br)c2ncc(CSCCCc3ccccc3)n12 | HEL | OKA (TK+) | 24 µg/mL
O=C(O)/C=C/c1cn([C@@H]2O[C@H](CO)[C@@H](O)[C@@H]2O)c(=S)[nH]c1=O | MRC-5 | HOSEN (TK+) | 90.6 µM
Nc1nc(N)c2ncn(CCOCP(=O)(O)O)c2n1 | HEL | YS/R (TK-) | 2.4 µM

Again, the opening 4 rows:

structure	cell line	strain or isolate	value
OC[C@H]1O[C@@H](c2cc(C(F)(F)F)c(F)cc2F)C[C@@H]1O	HEL	(TK+)/OKA	>200 µM
CCCc1ccc(OCCCc2cc3cn([C@H]4C[C@H](O)[C@@H](CO)O4)c(=O)nc3o2)cc1	HEL	TK+/YS	10.8 µM
OC[C@H]1O[C@@H](c2ccc(F)cc2F)C[C@@H]1O	HEL	(TK+)/OKA	>200 µM
CC1(C)[C@@H](CCO)C[C@H]1n1cnc2c(N)ncnc21	HEL	TK+/YS	>20 µg/mL